Source: publication PMC6127270 (Frontiers in Pharmacology, 2018)

Chains of the proteins cited; added tags and fusions are not shown.
UniProt P33535, whole entry: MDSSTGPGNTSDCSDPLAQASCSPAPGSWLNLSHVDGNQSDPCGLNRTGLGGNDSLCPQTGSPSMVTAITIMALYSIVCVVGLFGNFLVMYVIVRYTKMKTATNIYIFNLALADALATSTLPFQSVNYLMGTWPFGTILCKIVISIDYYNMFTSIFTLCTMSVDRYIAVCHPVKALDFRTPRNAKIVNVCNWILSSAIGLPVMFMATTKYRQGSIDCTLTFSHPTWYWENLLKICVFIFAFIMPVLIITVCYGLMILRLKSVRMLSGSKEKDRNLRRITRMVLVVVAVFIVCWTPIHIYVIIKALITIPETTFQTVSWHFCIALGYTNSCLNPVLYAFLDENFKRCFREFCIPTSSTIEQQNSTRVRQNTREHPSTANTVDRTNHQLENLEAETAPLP

Biological target: T1, MOR (Rattus norvegicus, UniProt P33535)
T1 construct: Membranes were prepared from Sprague–Dawley rat brains or guinea-pig brains; from tissue; host or cells: Sprague-Dawley rat brain
Assay: Competition binding, [3H]DAMGO, rat brain membranes
Settings: ratio of Ki values

Q: `CO[C@@]12CCC(=O)[C@@H]3Oc4c(O)ccc5c4[C@@]31CCN(C)[C@@H]2C5` [14-OMO, 14-O-methyloxymorphone, reference compound] was tested. Which “Selectivity KOR/MOR” value did it give?
A: 102
